PubChem BioAssay AID1259414 – Drosophila RNAi Screening Center – 2018
Purpose: 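Genome-wide screen for host control of endosymbiont load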 (primary screen). Cell system: Drosophila JW18 cells infected with Wolbachia. Reagent: long dsRNA against Drosophila genes, 0.25 µg dsRNA per well of a 384-well plate. Time to read-out: 5 days. Challenge: cells persistently infected with Wolbachia before knock-down; no added drug. Measured: 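Imaged fluorescence in situ signal for Wolbachia 23S rRNA per DAPI-counted host cell, given as a robust z-score within each plate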. Direction: Wolbachia per cell robust z: higher = more Wolbachia per host cell than the plate typical. Rule for the call: 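Active if absolute robust z reaches 1.5 in two or more of three replicates, leaving out multi- or no-target dsRNAs, genes unexpressed in JW18 and A1 wells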.
The screen tested about 24,000 reagents; this is a random part of those that have a named target and a result. Of all reagents, about 1,210 (5%) were called active. 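Inactive calls also include excluded dsRNAs with several or no targets, genes unexpressed in JW18, and well A1, regardless of score.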 Unmarked entries are inactive. Names joined by + are all predicted targets of the reagent. Reagent sequences are not shown.

The opening 7 entries, to show the layout:
gene	amplicon	Wolbachia per cell robust z, rep 1	Wolbachia per cell robust z, rep 2	Wolbachia per cell robust z, rep 3
Hgsnat	DRSC18405	-1.42	0.678	-2.1
Hgsnat	DRSC24716	1.14	-0.00388	0.892
PIG-K	DRSC18496	-0.261	-1.73	-0.402
nkd	DRSC11376	0.517	-0.99	-0.261
nkd	DRSC26962	-2.73 (active)	-1.52	0.219
CG3511	DRSC04382	-0.248	-0.564	-0.934
CG3511	DRSC28281	0.815	0.782	1.66

The list itself, from the start:
gene	amplicon	Wolbachia per cell robust z, rep 1	Wolbachia per cell robust z, rep 2	Wolbachia per cell robust z, rep 3
Hgsnat	DRSC18405	-1.42	0.678	-2.1
Hgsnat	DRSC24716	1.14	-0.00388	0.892
PIG-K	DRSC18496	-0.261	-1.73	-0.402
nkd	DRSC11376	0.517	-0.99	-0.261
nkd	DRSC26962	-2.73 (active)	-1.52	0.219
CG3511	DRSC04382	-0.248	-0.564	-0.934
CG3511	DRSC28281	0.815	0.782	1.66
mRRF2	DRSC16143	-5.45 (active)	0.102	-5.27
Nmda1	DRSC07479	-0.519	-1.4	0.166
Nmda1	DRSC26357	0.701	-0.197	1.45
asRNA:CR33945	DRSC14080	-0.661	0.157	-0.377
asRNA:CR33945	DRSC38805	1.08	-0.313	0.775
Vm26Ac	DRSC02329	-3.07	0.705	-5.7
Vm26Ac	DRSC26887	1.05	-0.223	0.387
Mccc1	DRSC15417	-0.195	0.178	-9.54
Mccc1	DRSC27491	0.557	0.837	-5.67
Ir85a	DRSC14382	1.05	0.305	0.426
Ir85a	DRSC29077	0.343	-0.907	-0.733
CG4101	DRSC10400	0.142	0.00143	-1.69
CG3719	DRSC18493	-0.635	-1.38	0.846
CG5255	DRSC15754	-5.16	0.527	-0.803
CG5255	DRSC24877	-1.03	0.522	-0.656
CG34045	DRSC38606	-2.03	-0.338	-0.449
Ipo9	DRSC16813	0.526	-0.228	0.82
CG5592	DRSC10524	0.262	1.06	0.481
shf	DRSC18283	0.314	-1.36	-0.355
shf	DRSC24224	-0.0669	2.41	-0.25
shf	DRSC38947	0.963	1.25	1.55
lncRNA:CR40629	DRSC38772	0.156	0.223	1.98
Stim	DRSC20158	-0.708	-1.23	2.18
Tailor	DRSC12526	0.206	-0.963	-0.734
rdgBbeta	DRSC07672	-4.05	-0.307	0.266
SPE	DRSC15135	-1.28	-1.18	-0.0874
SPE	DRSC25455	-1.29	-0.567	-1.04
CG14518	DRSC14870	-4.7	-0.878	-6.14
CG14518	DRSC27614	0.408	0.188	-0.382
CG10822	DRSC06005	0.227	-1.22	-0.582
CG8399	DRSC07163	0.984	-0.236	-0.139
CG17364	DRSC10269	-4.27	1.42	0.16
CG17364	DRSC10270	1.1	-3.89	0.696
CG17364	DRSC22689	-1.96	0.571	1.18
CG17364	DRSC29363	0.53	1.26	0.451
Hsl	DRSC06028	1.21	-0.148	-1.9
FoxK	DRSC24971	0.533	0.0421	1.47
Bug22	DRSC02842	-0.577	-2.29	0.373
CG14374	DRSC14834	0.854	-0.0732	0.89
Ube3a	DRSC10600	-0.502	-0.199	0.0261
CG30491	DRSC21472	0.673	-0.868	1.14
CG30491	DRSC25369	-1.16	-0.468	-0.5
por	DRSC20362	1.21	1.24	-3.62
por	DRSC29877	-0.00323	0.58	0.12
ND-B22	DRSC03193	-0.0964	0.496	0.124
ND-B22	DRSC28526	-2.08	-0.274	0.469
ocn	DRSC17020	0.808	0.313	-5.86
ProRS-m	DRSC08261	-0.381	-3.43	-0.2
ProRS-m	DRSC30008	0.085	-0.0884	0.848
CG5674	DRSC23176	-2.24	0.914	1.77
CG5674	DRSC28320	-0.435	0.839	-0.258
MFS3	DRSC00664	0.659	-5.66	0.987
MFS3	DRSC28601	0.0266	0.286	-1.07
Ankrd49	DRSC01894	0.747	0.902	-0.195
Ankrd49	DRSC29117	1.35	1.4	-0.331
CG7183	DRSC16210	-1.27	-0.473	-1.93
AGBE	DRSC06861	-0.0345	0.337	-0.289
AGBE	DRSC27652	-0.188	0.843	-0.0506
CG11555	DRSC00315	1.23	-0.53	0.348
CG11555	DRSC24179	-9.54	-0.227	-0.193
CG10096 + CG10097	DRSC14189	-0.208	-0.186	-0.0415
CG10096 + CG10097	DRSC14190	0.459	-6.14	-3.42
